{"source": "PubChem BioAssay AID1259414 (Drosophila RNAi Screening Center, 2018)", "test": "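Host factors increasing or decreasing Wolbachia levels in cultured fly cells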 (primary screen)", "cells": "Drosophila JW18 cells infected with Wolbachia", "reagent": "long dsRNA against Drosophila genes, 0.25 µg dsRNA per well of a 384-well plate", "timing": "5 days", "conditions": "cells persistently infected with Wolbachia before knock-down; no added drug", "read-out": "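Automated imaging of bacterial rRNA staining divided by host cell count, reported as plate-normalised robust z-score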", "scale": "Wolbachia per cell robust z: higher = more Wolbachia per host cell than the plate typical", "call rule": "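Active if absolute robust z reaches 1.5 in two or more of three replicates, leaving out multi- or no-target dsRNAs, genes unexpressed in JW18 and A1 wells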", "note": "In all, the deposit lists about 24,000 reagents; below is a random part of those with a known target gene and a result. Over the whole deposit, about 1,210 (5%) got an active call. 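Inactive calls also include excluded dsRNAs with several or no targets, genes unexpressed in JW18, and well A1, regardless of score.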 Unmarked entries are inactive. A plus sign joins genes that one reagent is predicted to hit. No sequences are given here."}
{"Target gene": "haf (GeneID 33339)", "DRSC id": "DRSC00381", "Wolbachia per cell robust z, rep 1": 0.407, "Wolbachia per cell robust z, rep 2": 1.1, "Wolbachia per cell robust z, rep 3": -1.14}
{"Target gene": "CG12012 (GeneID 38422)", "DRSC id": "DRSC08220", "Wolbachia per cell robust z, rep 1": -0.173, "Wolbachia per cell robust z, rep 2": -2.69, "Wolbachia per cell robust z, rep 3": 0.614}
{"Target gene": "CG11807 (GeneID 36683)", "DRSC id": "DRSC06087", "Wolbachia per cell robust z, rep 1": 0.762, "Wolbachia per cell robust z, rep 2": 0.475, "Wolbachia per cell robust z, rep 3": 0.0892}
{"Target gene": "Tfb5 + CG31917", "DRSC id": "DRSC02362", "Wolbachia per cell robust z, rep 1": 0.0302, "Wolbachia per cell robust z, rep 2": 0.99, "Wolbachia per cell robust z, rep 3": 0.951}
{"Target gene": "SKIP (GeneID 42601)", "DRSC id": "DRSC14713", "Wolbachia per cell robust z, rep 1": -0.129, "Wolbachia per cell robust z, rep 2": -4.28, "Wolbachia per cell robust z, rep 3": 0.181}
{"Target gene": "SKIP (GeneID 42601)", "DRSC id": "DRSC14714", "Wolbachia per cell robust z, rep 1": -1.06, "Wolbachia per cell robust z, rep 2": -1.3, "Wolbachia per cell robust z, rep 3": 0.424}
{"Target gene": "SKIP (GeneID 42601)", "DRSC id": "DRSC15864", "Wolbachia per cell robust z, rep 1": 0.78, "Wolbachia per cell robust z, rep 2": 0.568, "Wolbachia per cell robust z, rep 3": 0.571}
{"Target gene": "SKIP (GeneID 42601)", "DRSC id": "DRSC16195", "Wolbachia per cell robust z, rep 1": 0.632, "Wolbachia per cell robust z, rep 2": 0.553, "Wolbachia per cell robust z, rep 3": 0.0442}
{"Target gene": "SKIP (GeneID 42601)", "DRSC id": "DRSC16196", "Wolbachia per cell robust z, rep 1": 1.37, "Wolbachia per cell robust z, rep 2": 0.743, "Wolbachia per cell robust z, rep 3": -1.3}
{"Target gene": "Boh1 (GeneID 338395)", "DRSC id": "DRSC14487", "Wolbachia per cell robust z, rep 1": -0.0323, "Wolbachia per cell robust z, rep 2": -0.564, "Wolbachia per cell robust z, rep 3": 1.03}
{"Target gene": "CG8508 (GeneID 41620)", "DRSC id": "DRSC16436", "Wolbachia per cell robust z, rep 1": 0.684, "Wolbachia per cell robust z, rep 2": -1.65, "Wolbachia per cell robust z, rep 3": -0.435}
{"Target gene": "SK (GeneID 31456)", "DRSC id": "DRSC17387", "Wolbachia per cell robust z, rep 1": 1.34, "Wolbachia per cell robust z, rep 2": 0.264, "Wolbachia per cell robust z, rep 3": 0.711}
{"Target gene": "SK (GeneID 31456)", "DRSC id": "DRSC17887", "Wolbachia per cell robust z, rep 1": 0.165, "Wolbachia per cell robust z, rep 2": 0.119, "Wolbachia per cell robust z, rep 3": 0.00196}
{"Target gene": "SK (GeneID 31456)", "DRSC id": "DRSC17888", "Wolbachia per cell robust z, rep 1": 0.602, "Wolbachia per cell robust z, rep 2": 0.0145, "Wolbachia per cell robust z, rep 3": 0.272}
{"Target gene": "SK (GeneID 31456)", "DRSC id": "DRSC18353", "Wolbachia per cell robust z, rep 1": -0.236, "Wolbachia per cell robust z, rep 2": 0.399, "Wolbachia per cell robust z, rep 3": 0.209}
{"Target gene": "SK (GeneID 31456)", "DRSC id": "DRSC27622", "Wolbachia per cell robust z, rep 1": 0.639, "Wolbachia per cell robust z, rep 2": 0.492, "Wolbachia per cell robust z, rep 3": 0.211}
{"Target gene": "Rab8 (GeneID 40168)", "DRSC id": "DRSC11261", "Wolbachia per cell robust z, rep 1": 1.03, "Wolbachia per cell robust z, rep 2": 0.991, "Wolbachia per cell robust z, rep 3": 1.24}
{"Target gene": "SP1173 (GeneID 38744)", "DRSC id": "DRSC11277", "Wolbachia per cell robust z, rep 1": 0.747, "Wolbachia per cell robust z, rep 2": -1.21, "Wolbachia per cell robust z, rep 3": 0.183}
{"Target gene": "EndoG (GeneID 36309)", "DRSC id": "DRSC07292", "Wolbachia per cell robust z, rep 1": 0.433, "Wolbachia per cell robust z, rep 2": 0.388, "Wolbachia per cell robust z, rep 3": -0.577}
{"Target gene": "EndoG (GeneID 36309)", "DRSC id": "DRSC22746", "Wolbachia per cell robust z, rep 1": -0.648, "Wolbachia per cell robust z, rep 2": 0.456, "Wolbachia per cell robust z, rep 3": 0.206}
{"Target gene": "EndoG (GeneID 36309)", "DRSC id": "DRSC26632", "Wolbachia per cell robust z, rep 1": "-3.68 (active)", "Wolbachia per cell robust z, rep 2": 1.26, "Wolbachia per cell robust z, rep 3": -9.3}
{"Target gene": "Hpd (GeneID 40263)", "DRSC id": "DRSC11670", "Wolbachia per cell robust z, rep 1": -0.63, "Wolbachia per cell robust z, rep 2": 0.332, "Wolbachia per cell robust z, rep 3": 0.804}
{"Target gene": "Hpd (GeneID 40263)", "DRSC id": "DRSC27639", "Wolbachia per cell robust z, rep 1": -0.367, "Wolbachia per cell robust z, rep 2": -0.249, "Wolbachia per cell robust z, rep 3": -0.943}
{"Target gene": "RhoGAP100F (GeneID 43758)", "DRSC id": "DRSC15409", "Wolbachia per cell robust z, rep 1": 0.637, "Wolbachia per cell robust z, rep 2": -0.792, "Wolbachia per cell robust z, rep 3": 0.44}
{"Target gene": "RhoGAP100F (GeneID 43758)", "DRSC id": "DRSC28096", "Wolbachia per cell robust z, rep 1": 0.601, "Wolbachia per cell robust z, rep 2": -0.31, "Wolbachia per cell robust z, rep 3": 1.84}

Look-ups from the list:
Value of CG8508 (GeneID 41620) [DRSC16436] in “Wolbachia per cell robust z, rep 3”: -0.435
Entry of SK (GeneID 31456) [DRSC17887] in “Wolbachia per cell robust z, rep 3”: 0.00196
Under “Wolbachia per cell robust z, rep 2”, SK (GeneID 31456) [DRSC18353] reads 0.399
Under “Wolbachia per cell robust z, rep 1”, SKIP (GeneID 42601) [DRSC14714] is entered as -1.06
